# B1: Antibody 1-7 (Fc fusion)
# chain: EVQLVESGGGLVQPGGSLRLSCAASGGTFSSIGMGWFRQAPGKEREFVAAISWDGGATAYADSVKGRFTISADNSKNTVYLQMNSLKPEDTAVYYCAKEDVGKPFDWGQGTLVTVSS
# How the values were obtained:
# [1] = molecular target: T1, Acro S1 spike protein (SARS-CoV-2) (SARS-CoV-2, UniProt P0DTC2 16-685); assay: Carterra SPR; panel B), annotation in the right (grey) sensorgram
# [2] = molecular target: T1, Acro S1 spike protein (SARS-CoV-2); assay: Carterra SPR; panel B), table S1, row exp. date Jun-21
# [3] = molecular target: T1, Acro S1 spike protein (SARS-CoV-2); assay: Carterra SPR; panel B), table S1, row exp. date Sep-21
binder,measurement,setting,value
B1,Kd,[1],< 0.062 nM
same,Kd,[2],0.238 nM
same,koff,[2],3.1e-05 s⁻¹
same,Kd,[3],0.0621 nM

# — US20230192819A1 (TWIST BIOSCIENCE, published 2023)
